Data as given in US20050240009A1, “T-cell epitopes in staphylococcal enterotoxin b” (published 2005).
“And” between values parts separate entries of the source, which are not always exact repeats. Identical values can stand only once.

Tested on: human T-cells (PBMC from naïve donors)
Details: for number of reactive donor samples: PBMC from 20 naïve donors; for SI per responsive sample: Stimulation index, mean of triplicate determinations per responsive donor sample, peptides tested at 1uM and 5uM, higher of the two determinations, 7 days

Sequence | number of reactive donor samples | SI per responsive sample
KFTGLMENMKVLYDD | two | –
ENMKVLYDDNHVSAI | two | 4.4 and 3.1
GLMENMKVLYDDNHV | one | 8.1
